# From patent publication US9625458B2, “Biosensor” (priority 2002, dated 2017)
# Changes are numbered by the printed parent chain. Names and notes keep the numbering of the source.
# B1: dipeptide BP D450C JPW4045 (conjugate, UniProt P23847 29-535, looked up, variant D450C)
# Dipeptide-binding protein: KTLVYCSEGSPEGFNPQLFTSGTTYDASSVPLYNRLVEFKIGTTEVIPGLAEKWEVSEDGKTYTFHLRKGVKWHDNKEFKPTRELNADDVVFSFDRQKNAQNPYHKVSGGSYEYFEGMGLPELISEVKKVDDNTVQFVLTRPEAPFLADLAMDFASILSKEYADAMMKAGTPEKLDLNPIGTGPFQLQQYQKDSRIRYKAFDGYWGTKPQIDTLVFSITPDASVRYAKLQKNECQVMPYPNPADIARMKQDKSINLMEMPGLNVGYLSYNVQKKPLDDVKVRQALTYAVNKDAIIKAVYQGAGVSAKNLIPPTMWGYNDDVQDYTYDPEKAKALLKEAGLEKGFSIDLWAMPVQRPYNPNARRMAEMIQADWAKVGVQAKIVTYEWGEYLKRAKDGEHQTVMMGWTGDNGDPDNFFATLFSCAASEQGSNYSKWCYKPFEDLIQPARATCDHNKRVELYKQAQVVMHDQAPALIIAHSTVFEPVRKEVKGYVVDPLGKHHFENVSIE
# modifications: JPW4045 dye label
# B2: ribose BP D165C JPW4042 (conjugate, UniProt P02925 26-296, looked up, variant D165C)
# Ribose import binding protein …: KDTIALVVSTLNNPFFVSLKDGAQKEADKLGYNLVVLDSQNNPAKELANVQDLTVRGTKILLINPTDSDAVGNAVKMANQANIPVITLDRQATKGEVVSHIASDNVLGGKIAGDYIAKKAGEGAKVIELQGIAGTSAARERGEGFQQAVAAHKFNVLASQPADFCRIKGLNVMQNLLTAHPDVQAVFAQNDEMALGALRALQTAGKSDVMVVGFDGTPDGEKAVNDGKLAATIAQLPDQIGAKGVETADKVLKGEKVQAKYPVDLKLVVKQ
# modifications: JPW4042 dye conjugate
# B3: ribose BP L236C JPW4045 (conjugate, UniProt P02925 26-296, looked up, variant L236C)
# Ribose import binding protein …: B2 Ribose import binding protein … with C165D, L236C
# modifications: JPW4045 dye label
# B4: ribose BP L236C JPW4039 (conjugate, UniProt P02925 26-296, looked up, variant L236C)
# Ribose import binding protein …: B2 Ribose import binding protein … with C165D, L236C
# modifications: JPW4039 dye conjugate
# B5: ribose BP E192C Fluorescein (conjugate, UniProt P02925 26-296, looked up, variant E192C)
# Ribose import binding protein …: B2 Ribose import binding protein … with C165D, E192C
# modifications: fluorescein label
# B6: ribose BP L265C JPW4042 (conjugate, UniProt P02925 26-296, looked up, variant L265C)
# Ribose import binding protein …: B2 Ribose import binding protein … with C165D, L265C
# modifications: JPW4042 label
# B7: ribose BP L265C JPW4045 (conjugate, UniProt P02925 26-296, looked up, variant L265C)
# Ribose import binding protein …: B2 Ribose import binding protein … with C165D, L265C
# modifications: JPW4045 label
# B8: ribose BP L265C JPW4039 (conjugate, UniProt P02925 26-296, looked up, variant L265C)
# Ribose import binding protein …: B2 Ribose import binding protein … with C165D, L265C
# modifications: JPW4039 label
# B9: ribose BP L236C Fluorescein (conjugate, UniProt P02925 26-296, looked up, variant L236C)
# Ribose import binding protein …: B2 Ribose import binding protein … with C165D, L236C
# modifications: fluorescein conjugate
# B10: ribose BP E192C JPW4045 (conjugate, UniProt P02925 26-296, looked up, variant E192C)
# Ribose import binding protein …: B2 Ribose import binding protein … with C165D, E192C
# modifications: JPW4045 dye conjugate
# B11: ribose BP D165C JPW4045 (conjugate, UniProt P02925 26-296, looked up, variant D165C)
# Ribose import binding protein …: B2 Ribose import binding protein …
# modifications: JPW4045 label
# B12: ribose BP L236C NBD (conjugate, UniProt P02925 26-296, looked up, variant L236C)
# Ribose import binding protein …: B2 Ribose import binding protein … with C165D, L236C
# modifications: NBD label
# B13: ribose BP E192C JPW4039 (conjugate, UniProt P02925 26-296, looked up, variant E192C)
# Ribose import binding protein …: B2 Ribose import binding protein … with C165D, E192C
# modifications: JPW4039 dye label
# B14: ribose BP L265C Acrylodan (conjugate, UniProt P02925 26-296, looked up, variant L265C)
# Ribose import binding protein …: B2 Ribose import binding protein … with C165D, L265C
# modifications: acrylodan conjugate
# B15: ribose BP E192C NBD (conjugate, UniProt P02925 26-296, looked up, variant E192C)
# Ribose import binding protein …: B2 Ribose import binding protein … with C165D, E192C
# modifications: NBD dye conjugate
# B16: ribose BP L236C JPW4042 (conjugate, UniProt P02925 26-296, looked up, variant L236C)
# Ribose import binding protein …: B2 Ribose import binding protein … with C165D, L236C
# modifications: JPW4042 dye conjugate
# B17: ribose BP D165C Acrylodan (conjugate, UniProt P02925 26-296, looked up, variant D165C)
# Ribose import binding protein …: B2 Ribose import binding protein …
# modifications: acrylodan conjugate
# B18: ribose BP E192C JPW4042 (conjugate, UniProt P02925 26-296, looked up, variant E192C)
# Ribose import binding protein …: B2 Ribose import binding protein … with C165D, E192C
# modifications: JPW4042 label
# Assay: Fluorescence emission spectra without and with saturating ligand (wavelength shift, ΔIstd, ΔRmax)
# Details: emission maximum, absence of ligand
# Outline: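 Emission spectra of bPBP–fluorophore conjugates (50–1000 nM protein, 25 °C, stirred) recorded without and with saturating ligand, using fluorophore-specific excitation. Wavelength shift, ΔIstd (intensity change at the mid-point wavelength) and ΔRmax (maximal ratiometric change over enumerated band pairs, 2 nm steps, 10 nm width) derived.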
row,Molecule,"λmax,apo (nm)"
1,B1,663

# Same assay, conditions: emission maximum, saturating ligand (ligand column)
row,Molecule,"λmax,sat (nm)"
1,B1,666

# Same assay, conditions: standard intensity change, unbound vs ligand-saturated
row,Molecule,ΔIstd
1,B1,0.23

# Same assay, conditions: standard ratiometric change, unbound vs ligand-saturated
row,Molecule,ΔRmax
1,B1,1.18

# Same assay, conditions: wavelength of emission maximum, absence of ligand
row,Molecule,"λmax,apo (nm)"
1,B2,650
2,B3,643
3,B4,589
4,B5,526
5,B6,650
6,B7,669
7,B8,600
8,B9,520
9,B10,646
10,B11,646
11,B12,518
12,B13,598
13,B14,500
14,B15,546
15,B16,646
16,B17,501
17,B18,646

# Same assay, conditions: wavelength of emission maximum, saturating ligand
row,Molecule,"λmax,sat (nm)"
1,B2,652
2,B3,658
3,B4,588
4,B5,523
5,B6,654
6,B7,663
7,B8,596
8,B9,520
9,B10,666
10,B11,647
11,B12,525
12,B13,598
13,B14,501
14,B15,540
15,B16,670
16,B17,500
17,B18,679
